Measured values taken from article PMC6222871, “Suppression of Hepatitis C Virus Genome Replication and Particle Production by a Novel Diacylglycerol Acyltransferases Inhibitor” (Molecules : A Journal of Synthetic Chemistry and Natural …, 2018).

Each compound was assayed on luciferase-linked genotype 2a HCV RNAs. Conditions: CC50 divided by EC50.
Format: cell-based, hepatitis C virus
Experimental: To order to study impacts of DGAT inhibitors on HCV genome replication independently of the particle production, we decided to examine effects of these twelve DGAT inhibitors on the levels of viral RNA genome and cell viability in parallel. […] Then, we treated them with an increasing concentration of each DGAT inhibitor. Then, luciferase and MTT-based cell viability assays were performed to determine EC50 and CC50 (cytotoxic concentration required to kill 50% of treated cells) values, respectively.
Cell viability was measured with EZ-CYTOX (10% tetrazolium salt; Dogen, Gyeonggi-do, Korea) as described previously. Anti-HCV replication analysis using a luciferase assay was conducted as previously described.

Question: How did the “Therapeutic index (TI)” value turn out when CC(C)(C)OC(=O)n1cc(/C=C/C(=O)Nc2cccc(C(=O)N3CCCC3)c2)c2ccccc21 [5c] was run?
Answer: Its value is over 1.0.

Question: Which “Therapeutic index (TI)” value does the source give for CC(C)(C)OC(=O)n1cc(/C=C/C(=O)Nc2cccc(C(=O)NCc3ccco3)c2)c2ccccc21 [5h] here?
Answer: The value was 2.2.

Question: Which “Therapeutic index (TI)” value does the source give for O=C(NCc1ccccn1)c1ccc2nc(COc3ccc(C45CC6CC(CC(C6)C4)C5)cc3)[nH]c2c1 [10i] here?
Answer: Its value is 4.4.

Question: Which “Therapeutic index (TI)” value does the source give for O=C(NCc1ccccc1)c1ccc2nc(COc3ccc(C45CC6CC(CC(C6)C4)C5)cc3)[nH]c2c1 [10h] here?
Answer: Its value is over 1.3.

Question: For O=C(c1ccc2nc(COc3ccc(C45CC6CC(CC(C6)C4)C5)cc3)[nH]c2c1)N1CCCCC1 [10e], which “Therapeutic index (TI)” value is on record?
Answer: Its value is over 1.0.

Question: CC(C)NC(=O)c1cccc(NC(=O)/C=C/c2cn(C(=O)OC(C)(C)C)c3ccccc23)c1 [5a] was tested. Which “Therapeutic index (TI)” value did it give?
Answer: Its value is 1.9.

Question: How did the “Therapeutic index (TI)” value turn out when Cc1ccc(CNC(=O)c2cccc(NC(=O)/C=C/c3cn(C(=O)OC(C)(C)C)c4ccccc34)c2)o1 [5j] was run?
Answer: The value was 3.0.

Question: For O=C(Nc1ccccc1)c1ccc2nc(COc3ccc(C45CC6CC(CC(C6)C4)C5)cc3)[nH]c2c1 [10f], which “Therapeutic index (TI)” value is on record?
Answer: Its value is over 1.0.

Question: Which “Therapeutic index (TI)” value does the source give for CC(C)=CCn1cc(/C=C/C(=O)N(NC(=O)c2cccc(F)c2)C(C)C)c2ccccc21 [8u] here?
Answer: The value was over 1.0.

Question: Which “Therapeutic index (TI)” value does the source give for O=C(Nc1ccccc1)Nc1ccc(-c2ccc(C(=O)[C@@H]3CCC[C@H]3C(=O)O)cc2)cc1 [A922500, reference compound] here?
Answer: Its value is 1.4.

Question: Which “Therapeutic index (TI)” value does the source give for CC(C)CCn1cc(/C=C/C(=O)N(NC(=O)c2ccc(F)cc2)C(C)C)c2ccccc21 [8i] here?
Answer: Its value is over 2.0.

Question: How did the “Therapeutic index (TI)” value turn out when CC(C)CCn1cc(/C=C/C(=O)N(NC(=O)c2cccc(F)c2)C(C)C)c2ccccc21 [8h] was run?
Answer: Its value is over 1.5.
